Data from a compilation of properties of binary mixtures (doi:10.1016/j.molliq.2019.111959).

Experiment: xn = mol fraction of the nth substance listed
Conditions: 100 kPa

CC[n+]1ccn(C)c1.O=S(=O)(F)[N-]S(=O)(=O)F + CC[n+]1ccn(C)c1.F[B-](F)(F)F
mass density [kg/m3]
Conditions	293.15 K	298.15 K	303.15 K	308.15 K	313.15 K	318.15 K	323.15 K	328.15 K	333.15 K
x1 = 0.1	1298.4	–	1290.5	1286.5	1282.6	1278.6	1274.7	1270.7	1266.8
x1 = 0.2	–	–	1311.8	1307.8	1303.8	1299.8	1295.9	–	–
x1 = 0.3	1338.7	1334.6	–	1326.6	1322.6	1318.6	–	–	1306.5
x1 = 0.4	1356	1351.9	1347.8	1343.8	–	1335.6	1331.6	1327.5	1323.4
x1 = 0.5	–	–	1364.6	1360.4	–	1352	1347.9	1343.7	1339.5
x1 = 0.6	1400.5	1396.2	1391.9	–	1383.3	–	1374.7	–	1366.1
x1 = 1	1446.6	1442.1	1437.6	1433.1	1428.5	1424	–	–	1410.5

CC[n+]1ccn(C)c1.O=S(=O)(F)[N-]S(=O)(=O)F + CC[n+]1ccn(C)c1.O=S(=O)([N-]S(=O)(=O)C(F)(F)F)C(F)(F)F
mass density [kg/m3]
Conditions	293.15 K	298.15 K	303.15 K	308.15 K	313.15 K	318.15 K	323.15 K	328.15 K	333.15 K
x2 = 0	–	–	–	–	–	–	1419.5	1415	–
x2 = 0.5	1489.8	1485	1480.2	1475.5	1470.7	1465.9	1461.2	–	–
x2 = 0.6	1496.5	–	1486.8	1482	1477.2	1472.3	–	1462.7	1457.8
x2 = 0.7	1504.1	1499.3	1494.4	1489.5	–	–	1475	1470.1	1465.2
x2 = 0.8	1507.4	–	1497.5	1492.6	–	1482.8	1477.8	1472.9	1468

CC[n+]1ccn(C)c1.F[B-](F)(F)F + CC[n+]1ccn(C)c1.O=S(=O)(F)[N-]S(=O)(=O)F
x2 = 0
Conditions	mass density [kg/m3]
293.15 K	1284.4
298.15 K	1280.6
303.15 K	1276.9
308.15 K	1273.1
313.15 K	1269.3
318.15 K	1265.6
323.15 K	1261.8
328.15 K	1258

CC[n+]1ccn(C)c1.O=S(=O)([N-]S(=O)(=O)C(F)(F)F)C(F)(F)F + CC[n+]1ccn(C)c1.O=S(=O)(F)[N-]S(=O)(=O)F
x1 = 1
Conditions	mass density [kg/m3]
293.15 K	1523.7
303.15 K	1513.6
308.15 K	1508.6
313.15 K	1503.5
318.15 K	1498.5
323.15 K	1493.4
333.15 K	1483.3
